A mixed list of measured activities; the numbers were collected in NIAID ChemDB.

All rows: tests in culture; organism: HIV-1

An empty or dashed field is not shown. Lines come from different laboratories, so protocols vary. ECn: concentration that inhibits the pathogen or its effect by n%.

| structure | read-out | conditions | strain or isolate | cell line | read by | changes | value |
|---|---|---|---|---|---|---|---|
| O=C1N(Cc2ccc(CO)cc2)[C@H](Cc2ccccc2)[C@H](O)[C@@H](O)[C@@H](Cc2ccccc2)N1Cc1ccc(CO)cc1 | EC50 | - | NL4-3 | MT-4 | p24 | - | <0.2 µM |
| Cc1ccnc(N2C(=O)CSC2c2c(Cl)cccc2Cl)n1 | EC50 | - | - | CEM | cytopathic effect | RT-E138K | 0.05 µM |
| C1CNCCNCCCNCCNC1 | EC50 | - | IIIB | MT-4 | MTT | - | 44 µg/mL |
| Cc1ccnc(N2C(=O)CSC2c2c(F)cccc2F)n1 | EC50 | - | IIIB | MT-4 | cytopathic effect | - | 0.39 µM |
| Cc1cc(C)c2ccc(C)c(-n3c(C)nnc3SCC(=O)Nc3ccc(S(N)(=O)=O)cc3Cl)c2n1 | EC50 | - | - | HeLa | - | - | 0.0007 µM |
| Cc1cn([C@@H]2O[C@H](CO[Si](C)(C)C(C)(C)C)C3(OS(=O)(=O)C=C3N)[C@H]2O[Si](C)(C)C(C)(C)C)c(=O)n(C)c1=O | EC50 | - | Pyr/BHAP(RT-Y181I) | CEM | syncytia | RT-Y181I | 30 µM |
| COc1cc2c(cc1OC)N1CCc3cc4c(cc3[C@@H]1CC2)OCO4 | EC50 | - | IIIB | H9 | p24 | - | <0.1 µg/mL |
| CCOCn1c(Sc2cccc3ccccc23)c(C)c(=O)[nH]c1=O | EC50 | - | IIIB | MT-4 | cytopathic effect / MTT | - | 0.46 µM |
| CSC[C@H](NC(=O)COc1cccc2cnccc12)C(=O)N[C@@H](Cc1ccccc1)[C@H](O)C(=O)N1CSC(C)(C)[C@H]1C(=O)NC(C)(C)C | EC50 | - | MN | ATH8 | trypan blue | - | 0.03 µM |
| Cc1cc(C)c2ccccc2c1-n1c(C)nnc1SCC(=O)Nc1ccc(S(N)(=O)=O)cc1Cl | EC50 | - | - | HeLa | - | Y188L | 0.004 µM |
| C=C1OC(C(=O)O)C(/C(=C/C(=O)O)C(=O)OC2C3COC(=O)c4cc(O)c(O)c(O)c4-c4c(cc(O)c(O)c4O)C(=O)OC2C(O)C(OC(=O)c2cc(O)c(O)c(O)c2)O3)c2c1cc(O)c(O)c2O | EC50 | - | - | SupT1 + Sup-T1 | cytopathic effect | - | 4.5 µM |
| Nc1ncnc2c1ncn2CCOCP(=O)(O)O | EC50 | - | IIIB | PBL | - | - | 3.7 µM |
| Cc1ccc(NC(=O)CSc2nnc(C)n2-c2c(C)ccc3ccccc23)c(Cl)c1 | EC50 | - | - | HeLa | - | - | 8.32 µM |
| COC(=O)[C@@H](NC(=O)Cc1ccccc1)[C@@H]1N[C@@H](C(=O)NCCNC(=O)[C@@H]2N[C@@H]([C@H](NC(=O)Cc3ccccc3)C(=O)OC)SC2(C)C)C(C)(C)S1 | EC50 | - | RF | MT-4 | p24 | - | >100 µM |
| O=C(CCC(=O)N1CCN(CCNC(=S)Nc2ccc(Br)cn2)CC1)NCC(=O)OCC#Cc1cn([C@H]2CC[C@@H](CO)O2)c(=O)[nH]c1=O | EC50 | - | IIIB | MT-4 | RT activity | - | >10 µM |
| Cc1ccc(NC(=O)CSc2nnc(C)n2-c2ccc(Cl)c3ccccc23)c(Cl)c1 | EC50 | - | - | HeLa | - | Y188L | 0.324 µM |
| CC(C)(C)NC(=O)[C@H]1N(C(=O)[C@@H](O)[C@H](Cc2ccccc2)NC(=O)[C@H](CC(N)=O)NC(=O)COc2cccc3ccccc23)CSC1(C)C | EC50 | clinical isolate | ERS104 | PBMC(PHA) + PBMC | p24 | - | 0.107 µM |
| Cc1cn([C@H]2C[C@H](N=[N+]=[N-])[C@@H](CO)O2)c(=O)[nH]c1=O | EC50 | - | - | CEM | cytopathic effect | RT-L100I | 0.008 µM |
| CC(C)CN(C[C@@H](O)[C@H](Cc1ccccc1)NC(=O)[C@H](CC(N)=O)NC(=O)c1ccc2ccccc2n1)C(=O)NC(C)(C)C | EC95 | - | NL4-3 | MT-4 | p24 | PR-L10R | 0.1 µM |
| C1CNCCNCCCN[C@H]([C@H]2CNCCCNCCNCCCN2)CNC1 | EC50 | - | IIIB | MT-4 | cytopathic effect / MTT | - | 0.21 µg/mL |
| Cc1cc(=O)[nH]c(N2C(=O)CSC2c2c(Cl)cccc2Cl)n1 | EC50 | - | IIIB | MT-4 | cytopathic effect | - | 32.84 µM |
| c1cc(CN2CCCNCCNCCCNCC2)ccc1CN1CCCNCCNCCCNCC1 | EC50 | - | NL4-3 X4 | PBMC | antigen | - | 0.003 µg/mL |
| C=C(C)OC(=O)N1c2cc(Cl)ccc2NC(=S)C1(C)C | EC50 | - | HEPT (RT Y188H) | CEM | syncytia | RT-Y188H | 1.1 µM |
| COC(=O)[C@H](C)NP(=O)(OC[C@H]1O[C@@H](N2C(=O)NC(=O)C(C)(Br)C2OC)C[C@@H]1N=[N+]=[N-])Oc1ccc(Br)cc1 | EC50 | - | IIIB | PBMC | p24 | - | 0.005 µM |
| C1CNCCNCCCNCCNC1 | EC50 | - | IIIB | MT-4 | cytopathic effect / MTT | - | >500 µg/mL |
| CC(C)c1c(Sc2cccc3ccccc23)n(COCCO)c(=O)[nH]c1=O | EC50 | - | IIIB | MT-4 | cytopathic effect / MTT | - | 0.23 µM |
| Cc1cn([C@H]2C[C@H](N=[N+]=[N-])[C@@H](CO)O2)c(=O)[nH]c1=O | EC50 | - | IIIB | MT-4 | cytopathic effect / MTT | - | 0.0011 µM |
| Cc1ccc2c(C)ccnc2c1-n1c(C)nnc1SCC(=O)Nc1ccc(S(N)(=O)=O)cc1Cl | EC50 | - | - | HeLa | - | Y188L | 0.015 µM |
| CC(C)Nc1cccnc1N1CCN(C(=O)c2cc3ccccc3[nH]2)CC1 | EC50 | - | TIBO-2(RT-K103N) | CEM | syncytia | RT-K103N | 3.7 µM |
| Nc1nc(N)c2ncn(CCOCP(=O)(O)O)c2n1 | EC50 | - | BaL | Macrophage + Monocytes/macrophages | - | - | 0.076 µM |
| COc1ccc([C@H](O)CNC(=O)c2ccccc2)cc1 | EC50 | - | IIIB | H9 | p24 | - | <0.1 µg/mL |
| Cc1cc(C)nc(N2C(=O)CSC2c2c(Cl)cccc2Cl)n1 | EC50 | - | IIIB | CEM | cytopathic effect | - | 0.025 µM |
| Cc1cn([C@H]2C[C@H](N=[N+]=[N-])[C@@H](CO)O2)c(=O)[nH]c1=O | EC50 | - | 0650 | MOLT-4 / MOLT-4 (HIV-1) + MOLT-4 | syncytia | - | >50 µg/mL |
| C1CNCCNCCCN(CCCN2CCCNCCNCCCNCC2)CCNC1 | EC50 | pseudotyped | Pseudotype (cocal virus genome) | HELA/CD4 + HELA CD4+ | - | - | 2 µg/mL |
| CC(C)(C)NC(=O)[C@@H]1CCCN1C(=O)[C@@H](O)[C@H](Cc1ccccc1)NC(=O)[C@H](CC(N)=O)NC(=O)COc1cccc2ccccc12 | EC50 | - | LAI | ATH8 | trypan blue | - | 0.9 µM |
| Cc1nnc(C(C)C)n1C1C[C@H]2CC[C@@H](C1)N2CC[C@H](NC(=O)C1CCC(F)(F)CC1)c1ccccc1 | EC50 | - | CC1/85_NDC | PBMC | p24 / ELISA | - | 0.00054 µg/mL |
| Cc1[nH]c(=O)c(F)cc1Cn1cnc(C(F)(F)C(F)F)c(Oc2cc(C(F)F)cc(C#N)c2C)c1=O | EC50 | - | - | - | RT activity / fluorescence | - | 3.634 µM |
| CCc1cc(NCc2nc3c(Cl)ccc(Cl)c3o2)c(=O)[nH]c1C | EC50 | - | TSAO(RT-E138K) | CEM | syncytia | RT-E138K | 0.48 µM |
| C=CCN1C(=O)N(CC=C)[C@H](Cc2ccccc2)[C@H](O)[C@@H](O)[C@H]1Cc1ccccc1 | EC50 | - | RF | MT-2 | - | - | <4.7 µM |
| Cc1cc(S(N)(=O)=O)ccc1NC(=O)COc1ccc(Cl)cc1C(=O)c1cc(Cl)cc(C#N)c1 | EC50 | - | IIIB | C8166 | syncytia | - | 0.0014 µM |
| Cc1ccnc2c1NC(=O)c1cccnc1N2C1CC1 | EC50 | - | - | CEM | cytopathic effect | RT-K103N | 3.04 µM |
| COc1c2ccoc2nc2c(OC)c(O)ccc12 | EC50 | - | IIIB | H9 | p24 | - | 0.634 µg/mL |
| CC(C)c1c(Sc2cccc3ccccc23)n(COCCc2ccccc2)c(=O)[nH]c1=O | EC50 | - | IIIB | MT-4 | cytopathic effect / MTT | - | 2.77 µM |
| Cc1ccc(S(=O)(=O)Nc2ccccc2OCC(=O)Nc2ccc(S(N)(=O)=O)cc2C)cc1 | EC50 | - | IIIB | C8166 | syncytia | - | 0.552 µM |
| CC(C)(C)OC(=O)N[C@@H](Cc1ccccc1)[C@H](O)CNC[C@@H](O)[C@H](Cc1ccc(OCC(=O)N2CCOCC2)cc1)NC(=O)OC(C)(C)C | EC50 | - | RF | MT-2 | - | PR-G48V I54V A71T V82A | 3.08 µM |
| COc1ccc(C[C@H](NC(=O)O[C@H]2CCO[C@H]3OCC[C@H]32)[C@H](O)CN(CC(C)C)S(=O)(=O)c2ccc(N)cc2)cc1 | EC50 | - | LAI | MT-2 | - | - | <0.01 µM |
| Cc1ccc(S(=O)(=O)Nc2cc(Cl)ccc2OCC(=O)Nc2ccc(S(N)(=O)=O)cc2C)cc1 | EC50 | - | IIIB | C8166 | syncytia | - | 1.231 µM |
| CC(C)c1c(Sc2cccc3ccccc23)n(COCc2ccccc2)c(=O)[nH]c1=O | EC50 | - | IIIB | MT-4 | cytopathic effect / MTT | - | 0.063 µM |
| NS(=O)(=O)c1ccc(NC(=O)COc2ccc(Cl)cc2NS(=O)(=O)c2ccccc2)cc1 | EC50 | - | IIIB | C8166 | syncytia | - | 0.686 µM |
| C=C(COCP(=O)(O)O)Cn1cnc2c(=O)[nH]c(N)nc21 | EC50 | - | IIIB | CEM | - | - | 7.5 µM |
| Nc1ncnc2c1ncn2CCOCP(=O)(O)O | EC50 | - | - | H9 | antigen | - | 0.4 µM |
| Fc1cccc(F)c1C1SCc2nc3ccccc3n21 | EC50 | - | - | CEM | cytopathic effect | RT-Y188H | 4.16 µM |
| COc1cc2ccc(=O)oc2c(CC=C(C)C)c1OC | EC50 | - | IIIB | H9 | p24 | - | 0.576 µg/mL |
| COc1cc(C)nc(N2C(=O)CSC2c2c(Cl)cccc2Cl)n1 | EC50 | - | - | CEM | cytopathic effect | RT-E138K | 0.07 µM |
| COC(=O)[C@H](Cc1c[nH]c2ccccc12)NP(=O)(OC[C@H]1O[C@@H](N2C(=O)NC(=O)C(C)(Br)C2OC)C[C@@H]1N=[N+]=[N-])Oc1ccc(Br)cc1 | EC50 | - | IIIB | PBMC | p24 | - | 0.34 µM |
| CCCc1c(Sc2cccc3ccccc23)n(COCC)c(=O)[nH]c1=O | EC50 | - | IIIB | MT-4 | cytopathic effect / MTT | - | 1.86 µM |
| COC(=O)N[C@H](C(=O)N[C@@H](Cc1ccc(C#Cc2cnc(N3CC4CCC(C3)N4C3COC3)nc2)cc1)[C@H](CN(Cc1c(F)cc(-c2ccn(C(F)F)n2)cc1F)NC(=O)[C@@H](NC(=O)OC)C(C)(C)C(F)(F)F)OC(=O)CC(C)(C)c1c(C)cc(C)cc1OP(=O)(O)O)C(C)(C)C(F)(F)F | EC50 | - | IIIB | MT-4 | luminescence | - | 0.5773 µM |
| Cc1nnc(SCC(=O)Nc2ccc(S(N)(=O)=O)cc2Cl)n1-c1cccc2ccccc12 | EC50 | - | - | HeLa | - | Y188L | 0.191 µM |
| NC(N)=NCCC[C@H]1/C=C/[C@@H](Cc2ccc3ccccc3c2)C(=O)NCC(=O)N[C@H](Cc2ccc(O)cc2)C(=O)N[C@@H](CCCN=C(N)N)C(=O)N1 | EC50 | - | IIIB | MT-4 | cytopathic effect / MTT | - | 2.4 µM |
| CC1(C)S[C@H]([C@H](NC(=O)Cc2ccccc2)C(=O)NCc2ccccc2)N[C@H]1C(=O)N[C@H](Cc1ccccc1)[C@H](O)CC(=O)NCc1ccccc1 | EC50 | - | RF | MT-4 | syncytia | - | 2.9 µM |
| Nc1nc2c(ncn2CCOCP(=O)(O)O)c(=O)[nH]1 | EC50 | - | HE | CEM | - | - | 1.4 µM |
| C[C@@H]1O[C@@H](OC[C@H]2O[C@@H](Oc3c(-c4ccc(OS(=O)(=O)O)c(OS(=O)(=O)O)c4)oc4cc(OS(=O)(=O)O)cc(OS(=O)(=O)O)c4c3=O)[C@H](OS(=O)(=O)O)[C@@H](OS(=O)(=O)O)[C@@H]2OS(=O)(=O)O)[C@H](OS(=O)(=O)O)[C@H](OS(=O)(=O)O)[C@H]1OS(=O)(=O)O | EC50 | - | BAL R5 | TZM-b1 | luciferase | - | 8.5 µM |
| COC(=O)N[C@H](C(=O)N[C@@H](Cc1ccc(C#Cc2cnc(N3CC4CCC(C3)N4C3COC3)nc2)cc1)[C@H](CN(Cc1c(F)cc(-c2ccn(C(F)F)n2)cc1F)NC(=O)[C@@H](NC(=O)OC)C(C)(C)C(F)(F)F)OC(=O)CC(C)(C)c1c(CC(=O)NCc2cc(C#N)cc(C(=O)O)c2)cc(C)cc1OP(=O)(O)O)C(C)(C)C(F)(F)F | EC50 | - | IIIB | MT-4 | luminescence | - | 0.2345 µM |
| CCCc1c(Sc2cccc3ccccc23)n(COCc2ccccc2)c(=O)[nH]c1=O | EC50 | - | IIIB | MT-4 | cytopathic effect / MTT | - | 0.83 µM |